Measured values from several laboratories, pooled; numbers as filed in NIAID ChemDB.

Common to all: target-level tests; organism: Toxoplasma gondii

Lines come from different laboratories, so protocols vary. ICn is the concentration giving n% inhibition. An empty or dashed field is not shown. Inhibition is in % at the dose shown (toxicity tests: loss of growth or viability).

{"SMILES": "Nc1ccc(S(=O)(=O)Nc2nccs2)cc1", "target": "DHPS", "measure": "Ki", "value": "1.9 µM"}
{"SMILES": "COc1ccc(OC)c(/C(C)=C/c2coc3nc(N)nc(N)c23)c1", "target": "Dihydrofolate reductase", "measure": "IC50", "value": "15 µM"}
{"SMILES": "CC(=O)Nc1ccc(C(=O)O)cc1", "target": "DHPS", "strain": "RH", "measure": "inhibition", "tested at": "1 µM", "value": "8.3%"}
{"SMILES": "COc1ccc(OC)c(N(C)Cc2csc3nc(N)nc(N)c23)c1", "target": "DHFR", "measure": "inhibition", "tested at": "10 µM", "value": "<30%"}
{"SMILES": "C/C(=C/c1coc2nc(N)nc(N)c12)c1ccc(Cl)c(Cl)c1", "target": "Dihydrofolate reductase", "measure": "IC50", "value": "1.7 µM"}
{"SMILES": "CC1(C)N=C(N)N=C(N)N1c1ccc(-c2ccc3cc(Cl)ccc3c2)cc1", "target": "DHFR", "measure": "IC50", "value": "1.3 µM"}
{"SMILES": "COc1ccc2cc(/C(C)=C\\c3coc4nc(N)nc(N)c34)ccc2c1", "target": "Dihydrofolate reductase", "measure": "IC50", "value": "0.3 µM"}
{"SMILES": "Cc1cc2nc(N)nc(N)c2cc1C", "target": "DHFR", "measure": "IC50", "value": "7.7 µM"}
{"SMILES": "COc1cc(N(C)Cc2csc3nc(N)nc(N)c23)cc(OC)c1OC", "target": "DHFR", "measure": "inhibition", "tested at": "10 µM", "value": "<30%"}
{"SMILES": "Nc1nc(N)c2cc(Cl)ccc2n1", "target": "DHFR", "measure": "IC50", "value": "14 µM"}
{"SMILES": "C/C(=C\\c1coc2nc(N)nc(N)c12)c1ccccc1", "target": "Dihydrofolate reductase", "measure": "IC50", "value": "30 µM"}
{"SMILES": "CCCCc1ccc(Cc2nc3nc(N)nc(N)c3nc2Cc2ccc(CCCC)cc2)cc1", "target": "DHFR", "measure": "IC50", "value": "14 µM"}
{"SMILES": "C/C(=C\\c1coc2nc(N)nc(N)c12)c1cccc(Cl)c1", "target": "Dihydrofolate reductase", "measure": "IC50", "value": "1.5 µM"}
{"SMILES": "Nc1ccc(S(=O)(=O)c2ccc(N)cc2)cc1", "target": "DHPS", "measure": "Ki", "value": "0.81 µM"}
{"SMILES": "COc1cc(N2C(N)=NC(N)=NC2(C)C)cc(OC)c1OC", "target": "DHFR", "measure": "IC50", "value": "84 µM"}

The last 2 rows once more:

SMILES	target	strain	measure	tested at	value
Nc1ccc(S(=O)(=O)c2ccc(N)cc2)cc1	DHPS	-	Ki	-	0.81 µM
COc1cc(N2C(N)=NC(N)=NC2(C)C)cc(OC)c1OC	DHFR	-	IC50	-	84 µM